# Experimental data: PubChem BioAssay AID1259414 (Drosophila RNAi Screening Center, 2018)
# Purpose: 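Host factors increasing or decreasing Wolbachia levels in cultured fly cells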 (primary screen)
# Cells: Drosophila JW18 cells infected with Wolbachia
# Reagent: long dsRNA against Drosophila genes, 0.25 µg dsRNA per well of a 384-well plate
# Duration: 5 days
# Treatment: cells persistently infected with Wolbachia before knock-down; no added drug
# Measured: 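Automated imaging of bacterial rRNA staining divided by host cell count, reported as plate-normalised robust z-score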
# Direction: Wolbachia per cell robust z: higher = more Wolbachia per host cell than the plate typical
# Active means: 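Active if absolute robust z reaches 1.5 in two or more of three replicates, leaving out multi- or no-target dsRNAs, genes unexpressed in JW18 and A1 wells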
# In all, the deposit lists about 24,000 reagents; shown is a random part of those with a known target gene and a result. Of all reagents, about 1,210 (5%) got an active call. 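Inactive calls also include excluded dsRNAs with several or no targets, genes unexpressed in JW18, and well A1, regardless of score.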 A plus sign joins genes that one reagent is predicted to hit.
Gene,amplicon,"Wolbachia per cell robust z, rep 1","Wolbachia per cell robust z, rep 2","Wolbachia per cell robust z, rep 3",Outcome
CG17362,DRSC10267,-0.517,-0.573,-1.37,inactive
DAT (Dopamine transporter),DRSC07394,-3.77,-0.119,0.134,inactive
nompB (no mechanoreceptor potential B),DRSC03701,-0.124,-0.236,0.957,inactive
nompB (no mechanoreceptor potential B),DRSC03731,0.78,1.05,1.03,inactive
Fife,DRSC08409,1.07,-0.143,-0.951,inactive
Fife,DRSC08499,0.743,0.188,-0.557,inactive
Fife,DRSC23483,1.18,0.656,0.431,inactive
Fife,DRSC25709,-0.56,-0.539,0.532,inactive
Rbp + h-cup,DRSC14990,0.698,1.5,-2.15,inactive
BomT3 (Bomanin Tailed 3),DRSC15871,-0.968,-1.04,-6.04,inactive
BomT3 (Bomanin Tailed 3),DRSC25578,0.438,0.962,-0.456,inactive

Single entries from the entries so far:
For “Wolbachia per cell robust z, rep 2”, BomT3 (Bomanin Tailed 3) [DRSC25578] is entered as 0.962
Entry for BomT3 (Bomanin Tailed 3) [DRSC15871] in “Wolbachia per cell robust z, rep 3”: -6.04
Result of CG17362 [DRSC10267] in “Wolbachia per cell robust z, rep 2”: -0.573
nompB (no mechanoreceptor potential B) [DRSC03701], Wolbachia per cell robust z, rep 2: -0.236
Fife [DRSC08409], Wolbachia per cell robust z, rep 3 → -0.951

Next results follow:
Gene,amplicon,"Wolbachia per cell robust z, rep 1","Wolbachia per cell robust z, rep 2","Wolbachia per cell robust z, rep 3",Outcome
slou (slouch),DRSC17058,-5,-0.0601,-6.65,inactive
slou (slouch),DRSC25233,1.16,0.62,0.148,inactive
CG33704,DRSC38898,-1.02,-0.128,-0.638,inactive
Ssl (Suppressor of Stellate-like),DRSC04657,0.187,0.144,1.1,inactive
Ssl (Suppressor of Stellate-like),DRSC26276,0.849,0.452,0.0373,inactive
Ssl (Suppressor of Stellate-like),DRSC41399,-2.29,-0.535,0.852,inactive
CG32984,DRSC21602,-1.27,-0.9,-0.871,inactive
CG32984,DRSC29257,0.331,-0.999,0.0776,inactive
CG32984,DRSC39096,-0.198,-0.936,-1.6,inactive
CG16935,DRSC06638,-1.24,1.81,0.832,inactive
Grd (Glycine receptor),DRSC11178,-0.214,-0.849,0.547,inactive
Grd (Glycine receptor),DRSC28513,0.315,-0.0902,0.573,inactive
CG10184,DRSC14204,-0.903,-1.62,0.606,inactive
CG2712,DRSC18589,-0.1,0.203,-0.424,inactive
Or19a (Odorant receptor 19a),DRSC20684,0.214,0.259,0.687,inactive
CG11131,DRSC11636,-0.213,0.317,-0.839,inactive
CG11131,DRSC21736,-1.35,-1.48,0.306,inactive
CG11131,DRSC28565,0.491,0.0968,0.584,inactive
